From patent publication US7968752B2, “Hydrolytically-resistant boron-containing therapeutics and methods of use” (Anacor Pharmaceuticals, Inc., priority 2003, dated 2011)
No dose or concentration is given here for some results.

system: 17D strain YFV virus; assay type: cell-based, Yellow Fever (YFV); settings: TC50/IC50

In order of rising “Anti-Yellow Fever Activity Antiviral Index” value:
1. Clc1ccc(B2OCc3ccccc32)cc1 [Compound 17, 1-(4-Chlorophenyl)-1,3-dihydrobenzo[c][1,2]oxaborole]  4.11
2. Fc1cccc(B2OCc3cc(Cl)ccc32)c1 [Compound 13, 5-Chloro-1-(3-Fluorophenyl)-1,3-dihydrobenzo[c][1,2]oxaborole]  4.48
3. Fc1ccc2c(c1)B(c1cccc(Cl)c1)OC2 [Compound 15, 1-(3-Chlorophenyl)-6-fluoro-1,3-dihydrobenzo[c][1,2]oxaborole]  5.53
4. Fc1ccc2c(c1)COB2c1cccc(Cl)c1 [Compound 11, 1-(3-Chlorophenyl)-5-fluoro-1,3-dihydrobenzo[c][1,2]oxaborole]  6.38
5. N#Cc1cccc(B2OCc3ccc(F)cc32)c1 [Compound 21, 3-(6-Fluorobenzo[c][1,2]oxaborol-1(3H)-yl)benzonitrile]  6.72
6. N#Cc1ccc(B2OCc3ccccc32)cc1 [Compound 18, 4-(Benzo[c][1,2]oxaborol-1(3H)-yl)benzonitrile]  8.91
7. N#Cc1cccc(B2OCc3cc(F)ccc32)c1 [Compound 20, 3-(5-Fluorobenzo[c][1,2]oxaborol-1(3H)-yl)benzonitrile]  12.98
8. N#Cc1cccc(B2OCc3ccccc32)c1 [Compound 14, 3-(Benzo[c][1,2]oxaborol-1(3H)-yl)benzonitrile]  14.91
